{
  "source": "patent US20070112179A1",
  "key": {"[1]": {"molecular_target": "A3 tumour-associated antigen on Colo205 cells (identified in Example 5 as α6β4 integrin), human, P23229 24-1083; P16144 52-1822"}, "[2]": {"molecular_target": "1F TAA on Colo205 cells"}, "[3]": {"molecular_target": "A3 tumour-associated antigen on Colo205 cells (identified in Example 5 as α6β4 integrin) (human) (UniProt P23229)"}},
  "note": "Values joined by “and” are separate entries in the source; they are usually repeats but may differ in a detail not shown here. Equal entries are not always repeated.",
  "data": [
    {"substance": "A3 scFv-SEA(D227A) fusion protein", "values": [
      {"measurement": "Kd", "setting": "[1]", "result": "3.6 to 5.5", "unit": "nM"}
    ]},
    {"substance": "1F scFv-SEA(D227A) fusion protein (from UniProt P0A0L2 25-257)", "values": [
      {"measurement": "million sites/cell", "setting": "[2]", "result": 180000, "unit": "sites/cell"}
    ]},
    {"substance": "A3 Fab-SEA(D227A) fusion protein (from UniProt P0A0L2 25-257)", "values": [
      {"measurement": "Kd", "setting": "[3]", "result": "580 nM and 780 nM"}
    ]}
  ]
}
